Results taken from PMC2951761 (Biochemistry, 2010).

Target: EF CC activity (Bacillus anthracis, UniProt P40136)
Assay type: biochemical

Q: MANT-ATP was tested. Which “fold lower potency than MANT-CTP in inhibition of EF CC activity” value did it give?
A: The value was “about 7 fold”.

Q: And the Ki (read-out: Ki EF CC activity)?
A: The Ki was 580 ± 30 nM.
